Pooled drug test results. Numbers come from NIAID ChemDB, via PubChem.

Common to all: growth or infection tests; species: Mycobacterium avium complex; measure: MIC

Rows are shuffled and stem from different studies. a–b is a range or a potency band.

structure | strain | result
Cc1c(CSc2nc(=O)[nH]c3nc[nH]c23)cccc1[N+](=O)[O-] | NJ211 | >32 µg/mL
Cc1c(CNc2cccc3ncccc23)cnc2nc(N)nc(N)c12 | NJ3404 | ≤0.13 µg/mL
CC[C@H]1OC(=O)[C@H](C)[C@@H](O[C@H]2C[C@@](C)(OC)[C@@H](OC(C)=O)[C@H](C)O2)[C@H](C)[C@@H](O[C@@H]2O[C@H](C)C[C@H](N(C)C)[C@H]2OC(=O)NN(C)Cc2ccccc2)C(C)(O)C[C@@H](C)/C(=N\OCCCC2CCCCC2)[C@H](C)[C@@H](O)[C@]1(C)O | 20092 (clarithromycin-resistant) | 12.5 µg/mL
Cc1c(CNc2ccc3ccccc3c2)cnc2nc(N)nc(N)c12 | NJ211 | ≤0.13 µg/mL
CC[C@H]1OC(=O)[C@H](C)[C@@H](O[C@H]2C[C@@](C)(OC)[C@@H](OC(C)=O)[C@H](C)O2)[C@H](C)[C@@H](O[C@@H]2O[C@H](C)C[C@H](N(C)C)[C@H]2O)C(C)(O)C[C@@H](C)/C(=N\OCC2CCCCC2)[C@H](C)[C@@H](O)[C@]1(C)O | 20039 (clarithromycin-susceptible) | 3.13 µg/mL
Cc1ccc(C)c(NCc2cnc3nc(N)nc(N)c3c2C)c1 | NJ211 | ≤0.13 µg/mL
NNC(=O)c1ccncc1 | N-314 (HIV-) | 2 µg/mL
CCc1c(CNc2cc(OC)ccc2OC)cnc2nc(N)nc(N)c12 | NJ3404 | ≤0.13 µg/mL
CC[C@H]1OC(=O)[C@H](C)[C@@H](O[C@H]2C[C@@](C)(OC)[C@@H](OC(C)=O)[C@H](C)O2)[C@H](C)[C@@H](O[C@@H]2O[C@H](C)C[C@H](N(C)C)[C@H]2O)C(C)(O)C[C@@H](C)/C(=N\OCCCCc2ccccc2)[C@H](C)[C@@H](O)[C@]1(C)O | 20039 (clarithromycin-susceptible) | 0.78 µg/mL
COc1cccc(CSc2ccncc2)c1 | NJ211 | >12.8 µg/mL
Cc1c(CSc2cccc(Cl)c2)cnc2nc(N)nc(N)c12 | NJ3404 | ≤0.13 µg/mL
CCO/N=C1\[C@H](C)CC(C)(O)[C@H](O[C@@H]2O[C@H](C)C[C@H](N(C)C)[C@H]2O)[C@@H](C)[C@H](O[C@H]2C[C@@](C)(OC)[C@@H](OC(C)=O)[C@H](C)O2)[C@@H](C)C(=O)O[C@H](CC)[C@@](C)(O)[C@H](O)[C@H]1C | 20092 (clarithromycin-resistant) | >50 µg/mL
CO[C@H]1/C=C/O[C@@]2(C)Oc3c(C)c(O)c4c(=O)c(c5oc6cc(N7CCN(CC(C)C)CC7)cc(=O)c6nc5c4c3=C2O)NC(=O)/C(C)=C\C=C\[C@H](C)[C@H](O)[C@@H](C)[C@@H](O)[C@@H](C)[C@H](OC(C)=O)[C@@H]1C | N-269 (HIV-) | 0.0625 µg/mL
Cc1c(CNc2cccc3c2CCCC3)cnc2nc(N)nc(N)c12 | NJ211 | ≤0.13 µg/mL
CC[C@H]1OC(=O)[C@H](C)[C@@H](O[C@H]2C[C@@](C)(OC)[C@@H](O)[C@H](C)O2)[C@H](C)[C@@H](O[C@@H]2O[C@H](C)C[C@H](N(C)C)[C@H]2O)[C@](C)(OC)C[C@@H](C)C(=O)[C@H](C)[C@@H](O)[C@]1(C)O | N-976 (HIV+) | 2 µg/mL
Cc1c(CNc2cccc3ccccc23)cnc2nc(N)nc(N)c12 | NJ211 | ≤0.13 µg/mL
COc1cccc(CSc2ncnc3nc[nH]c23)c1 | NJ211 | >12.8 µg/mL
COCc1c(CNc2cc(OC)ccc2OC)cnc2nc(N)nc(N)c12 | NJ211 | >13 µg/mL
CC[C@H]1OC(=O)[C@H](C)[C@@H](OC2C[C@@](C)(OC)[C@@H](OC(C)=O)[C@H](C)O2)[C@H](C)[C@@H](O[C@@H]2O[C@H](C)C[C@H](N(C)C)[C@H]2O)C(C)(O)C[C@@H](C)/C(=N\OCCCOc2ccccc2)[C@H](C)[C@@H](O)[C@]1(C)O | 20092 (clarithromycin-resistant) | 0.78 µg/mL
CC(C)N=C(N)/N=C(\N)NOCCCOc1cc(Cl)c(Cl)cc1Cl | 3008 | 32 µg/mL
CO[C@H]1/C=C/O[C@@]2(C)Oc3c(C)c(O)c4c(O)c(c5c(c4c3C2=O)NC2(CCN(CC(C)C)CC2)N=5)=NC(=O)/C(C)=C\C=C\[C@H](C)[C@H](O)[C@@H](C)[C@@H](O)[C@@H](C)[C@H](OC(C)=O)[C@@H]1C | N-981 (HIV+) | 0.8 µg/mL
CC[C@H]1OC(=O)[C@H](C)[C@@H](OC(=O)Cc2cccnc2)[C@H](C)[C@@H](O[C@@H]2O[C@H](C)C[C@H](N(C)C)[C@H]2O)C(C)(O)C[C@@H](C)/C(=N\OCCCOc2ccccc2)[C@H](C)[C@@H](O)[C@]1(C)O | 20092 (clarithromycin-resistant) | 12.5 µg/mL
COc1ccccc1CSc1nc(=O)[nH]c2nc[nH]c12 | NJ211 | >12.8 µg/mL
CC[C@H]1OC(=O)[C@H](C)[C@@H](O[C@H]2C[C@@](C)(OC)[C@@H](OC(C)=O)[C@H](C)O2)[C@H](C)[C@@H](O[C@@H]2O[C@H](C)C[C@H](N(C)C)[C@H]2O)C(C)(O)C[C@@H](C)/C(=N\OCCc2ccccc2)[C@H](C)[C@@H](O)[C@]1(C)O | 20039 (clarithromycin-susceptible) | 1.56 µg/mL
NNC(=O)c1ccncc1 | 13025 | 0.32–0.4 µg/mL
Cc1ccc(C)c(Sc2ncccn2)c1 | NJ211 | >12.8 µg/mL
CCCCC(=O)O[C@H]1[C@H](C)[C@@H](O[C@@H]2O[C@H](C)C[C@H](N(C)C)[C@H]2O)C(C)(O)C[C@@H](C)/C(=N\OCCCOc2ccccc2)[C@H](C)[C@@H](O)[C@](C)(O)[C@@H](CC)OC(=O)[C@@H]1C | 20092 (clarithromycin-resistant) | 6.25 µg/mL

The last 2 rows once more:

structure,strain,result
Cc1ccc(C)c(Sc2ncccn2)c1,NJ211,>12.8 µg/mL
CCCCC(=O)O[C@H]1[C@H](C)[C@@H](O[C@@H]2O[C@H](C)C[C@H](N(C)C)[C@H]2O)C(C)(O)C[C@@H](C)/C(=N\OCCCOc2ccccc2)[C@H](C)[C@@H](O)[C@](C)(O)[C@@H](CC)OC(=O)[C@@H]1C,20092 (clarithromycin-resistant),6.25 µg/mL